Measured values: article PMC9823356, “Inhibition of Cancer Cell Proliferation and Bacterial Growth by Silver(I) Complexes Bearing a CH3-Substituted Thiadiazole-Based Thioamide” (Molecules, 2023)

System: calf-thymus (CT) DNA
Test: CT DNA interaction by UV-visible spectroscopy
Settings: DMSO solution, upon addition of CT DNA

Molecule	blue/red shift of λmax, Δλ
Cc1nnc(S)s1 [mtdztH, 5-methyl-1,3,4-thiadiazole-2-thiol, reference compound]	0 nm
[Ag(mtdztH)(dppe)(NO3)]n [Compound 4]	0 nm
